A mixed list of measured activities; the numbers were collected in NIAID ChemDB.

All rows: growth or infection tests; species: Hepatitis C virus; read-out: inhibition

An empty or dashed field is not shown. Neighbouring rows are from separate reports. Inhibition is in % at the dose shown (toxicity tests: loss of growth or viability).

| SMILES | method | strain | cells | tested at | result |
|---|---|---|---|---|---|
| C[C@@]1(O)[C@H](O)[C@@H](CO)O[C@H]1n1ccc2c(N)ncnc21 | MTT |  | HeLa-5B | 10 µg/mL | 11.56% |
| CCCCCCCCCCCCCCCc1cccc(O)c1C(=O)O | luciferase | JFH-1 (gt 2a) | Huh7 | 5 µM | 40% |
| O=c1c(O)c(-c2ccc(O)c(O)c2)oc2cc(O)cc(O)c12 | PCR | G1 | Huh7 | 5 µM | 61% |
| Clc1ccc(Cn2c(CN3CCCC3)nc3ccccc32)cc1 | luciferase / replicon | 1b Con1 | Huh7 | 10 µM | 67.03% |
| CC(=N/O)/C(C)=N/O | PCR | sg2a (JFH) | Huh7-1 | 50 µM | <75% |
| O=C1c2c(O)cc(O)cc2O[C@H](c2ccc(O)c(O)c2)[C@H]1O | PCR | G1 | Huh7 | 1 µM | 39% |
| C[C@@]1(O)[C@H](O)[C@@H](CO)O[C@H]1c1coc2c(N)ncnc12 | MTT |  | HepG2-5B | 10 µg/mL | 0% |
| O=c1cc(Sc2c(Cl)cccc2Cl)c2cc(F)ccc2o1 |  |  | Ava5 | 10 µM | 92% |
| CO[C@H]1[C@@H](O)[C@@H](C)O[C@H](O[C@H]2[C@H](Oc3cccc4c(O)c5c(=O)oc6ccc(C)c7c(=O)oc(c34)c5c67)O[C@H](C)[C@H](O)[C@@H]2O)[C@@H]1O | PCR | sg1b | Huh7-1 | 50 µM | <75% |
| Cc1ccc(Sc2c(Sc3ccc(F)cc3Cl)c3ccccc3oc2=O)cc1C |  |  | Ava5 | 10 µM | 60.5% |
| Cc1cc(N2CCOCC2)nc2ccc(Cc3ccc4nc(N5CCOCC5)cc(C)c4c3)cc12 | PCR | sg1b | Huh7-1 | 50 µM | <75% |
| O=c1oc2ccccc2c(Sc2ccc(Br)cc2)c1Sc1ccc(F)cc1 |  |  | Ava5 | 10 µM | 47.5% |
| CC(C)OC(=O)[C@H](C)N[P@](=O)(OC[C@H]1O[C@@H](n2ccc(=O)[nH]c2=O)[C@](C)(F)[C@@H]1O)Oc1ccccc1 | luciferase / replicon | 1b Con1 | Huh7 | 0.06 µM | 38.71% |
| Cc1cc(C)cc(Sc2c(Sc3cccc(Cl)c3)c3ccccc3oc2=O)c1 |  |  | Ava5 | 10 µM | 76.5% |
| C[C@H](Br)C(=O)c1ccc2cc(Br)c3ccccc3c2c1 | PCR | sg1b | Huh7-1 | 50 µM | <75% |

2 of the rows above, restated:

SMILES,method,strain,cells,tested at,result
O=c1cc(Sc2c(Cl)cccc2Cl)c2cc(F)ccc2o1,,,Ava5,10 µM,92%
O=c1oc2ccccc2c(Sc2ccc(Br)cc2)c1Sc1ccc(F)cc1,,,Ava5,10 µM,47.5%